Several values for one entry are separate records, joined by “and”; a condition that tells them apart may be missing. Equal values may be shown once.

The experiment deals with pseudorabies virus (PrV). Details: species or system mice. To be noted: mouse, in vivo.

In the case of IL-2, the “Median Survival Times” value was 3 days and 4 days and 3.3 days and 4.5 days and 5 days and 3.7 days.
